A mixed list of measured activities; the numbers were collected in NIAID ChemDB.

Common to all: growth or infection tests; organism: Hepatitis C virus

ECn is the concentration giving n% inhibition of infection, replication or growth. Two numbers with a dash give a range or band. An empty or dashed field is not shown. Conditions beyond the fields shown may differ between rows.

smiles	cell line	setting	strain or isolate	endpoint	read by	value
C[C@@]1(O)[C@H](O)[C@@H](CO)O[C@H]1n1ccc(N)nc1=O	Huh7			EC50		3.7 µg/mL
CCCCCCCCCCCCCCCCCCOCCOP(=O)(O)CO[C@H](COC)Cn1cnc2c(N)ncnc21			K50N mutant	EC50		7.07 µM
Cc1cn(C2CP(=O)(OC(C)C)[C@@H](COCc3ccccc3)O2)c(=O)[nH]c1=O	Huh7		ZS11 (gt 1b)	EC50	luciferase / replicon	>10 µM
CC1=CC[C@H](C(=O)N(c2cc(C#CC(C)(C)C)sc2C(=O)O)C2CCC(O)(CO[C@H]3CCOC3)CC2)CC1	Huh7		Con1 (gt 1b)	EC50	luciferase	0.005 µM
CCCNC(=O)N[C@H](C(=O)N1CC[C@H]2[C@H]1C1(CCC1)C(=O)N2C(=O)C1CC1)C(C)C				EC50		1.6 µM
C=CC1CC1(NC(=O)[C@@H]1C[C@@H](Oc2cc(-c3ccccc3)nc3cc(OC)ccc23)CN1C(=O)[C@@H](CC(=O)N1CCc2ccccc2C1)C(C)(C)C)C(=O)O				EC50	replicon	<100 µM
CC(C)NC(=O)N[C@H](C(=O)N1CC[C@H]2[C@H]1C1(CCC1)C(=O)N2C(=O)C1CC1)C(C)C				EC50		6.3 µM
COc1ccccc1Nc1s[nH]c(=O)c1C#N	Huh7			EC50	replicon	10–50 µM
O=C(O)c1ccc2nc(-c3ccccc3)c(-c3ccccc3)nc2c1	Huh7			EC50	replicon	>50 µM
COc1ccc(C2Nc3cc(C(=O)c4ccccc4)ccc3NC3=C2C(=O)CC(C)(C)C3)cc1OC	Huh7			EC50	replicon	17.8 µM
CNC(=O)c1c(-c2ccc(F)cc2)oc2cc(NS(C)(=O)=O)c(C3CCCO3)cc12	Huh7			EC50	replicon	<1 µM
COc1nc(N)nc2c1ncn2[C@@H]1O[C@H](COP(=O)(N[C@@H](C)C(=O)OC(C)C)Oc2ccccc2)[C@@H](O)[C@@]1(C)F	Huh7		H77	EC90	luciferase	0.0105 µM
CC1(C)CC(=O)C2=C(C1)Nc1cccc(Br)c1NC2c1ccc(Cl)cc1Cl	Huh7			EC50	replicon	5.175 µM
Cc1cc(-c2nnc(N[C@@H]3CCC[C@H](O)C3)o2)nc2c(C(C)(C)C)cc(OCC(F)(F)F)cc12	Huh7		GT 2a JFH	EC50		0.096 µM
O=C(Nc1ccc(C2SC(=Nc3cc(F)cc(F)c3)N(Cc3ccco3)C2=O)cc1)[C@H]1CCCN1C(=O)OCc1ccccc1	Huh7			EC50	replicon	0.1–1 µM
Cc1nc2c(s1)CCCn1c-2c(C2CCCCC2)c2ccc(C(=O)O)cc21			1b	EC50		10 µM
CC1(C)CC(=O)C2=C(C1)Nc1ccc(C(=O)c3ccccc3)cc1NC2c1ccc(F)cc1	Huh7			EC50	replicon	24.5 µM
N#Cc1c(Nc2cc(Cl)cc(Cl)c2)s[nH]c1=O	Huh7			EC50	replicon	<1 µM
O=C(N[C@@H](Cc1c[nH]c2ccc(O)cc12)C(=O)O)c1ccc2nc(-c3ccc(F)cc3)c(-c3ccc(F)cc3)nc2c1	Huh7			EC50	replicon	10–50 µM
CNC(=O)c1c(-c2ccc(F)cc2)oc2cc(C(C)=O)c(C)cc12	Huh7			EC50	replicon	<10 µM
C#C[C@]1(CO)O[C@@H](n2ccc(N)nc2=O)[C@H](O)[C@@H]1O	Huh7			EC50	replicon	>20 µM
C[C@@H](NC(=O)OCc1ccccc1)C(=O)Nc1ccc(C2SC(=Nc3ccc4c(c3)CCC4)N(Cc3ccco3)C2=O)cc1	Huh7			EC50	replicon	1–5 µM
C=CCNC(=O)N[C@H](C(=O)N1CC[C@H]2[C@H]1C1(CCC1)C(=O)N2C(=O)C1CC1)C(C)C				EC50		1.6 µM
O=C(O)c1ccc2nc(-c3ccc(Br)cc3)c(-c3ccc(Br)cc3)nc2c1	Huh7			EC50	replicon	10–50 µM
N#Cc1c(NC2CCc3ccccc32)s[nH]c1=O	Huh7			EC50	replicon	1–10 µM
CCC(=O)N1c2ccccc2NC2=C(C(=O)CC(C)(C)C2)C1c1cc(Cl)cc(Cl)c1OC	Huh7			EC50	replicon	17.83 µM
Nc1ccn([C@@H]2O[C@H](CO)[C@@H](O)[C@H]2F)c(=O)n1	Huh7			EC50	replicon	0.74 µM
COC(=O)[C@@H](NC(=O)N[C@H](C(=O)N1CC[C@H]2[C@H]1C1(CCC1)C(=O)N2C(=O)C1CC1)C(C)C)C(C)C				EC50		0.38 µM
CN(C)CCNc1ccc2c(Nc3ccncc3F)nc(-c3cc(Cl)ccc3F)nc2n1	Huh7			EC50	replicon	>10 µM
CCC(=O)N1c2ccccc2NC2=C(C(=O)CC(c3ccc(OC)c(OC)c3)C2)C1c1ccccc1OC(C)CC	Huh7			EC50	replicon	4.78 µM
COC(=O)[C@H](Cc1c[nH]c2ccccc12)NC(=O)c1ccc2nc(-c3ccccn3)c(-c3ccccn3)nc2c1	Huh7			EC50	replicon	>50 µM
Cc1ccc2c(c1)NC(c1ccc(C(C)C)cc1)C1=C(CC(C)(C)CC1=O)N2	Huh7			EC50	replicon	>25 µM
Cc1ccc(-c2nc3cc(C(=O)O)ccc3nc2-c2ccc(Cl)cc2)cc1	Huh7			EC50	replicon	10–50 µM
CCC[C@H](NC(=O)[C@@H]1[C@H]2CCC[C@H]2CN1C(=O)[C@@H](NC(=O)[C@@H](NC(=O)c1cnccn1)C1CCCCC1)C(C)(C)C)C(=O)C(=O)NC1CC1				EC50		0.334 µM
CCC(=O)N1c2ccccc2NC2=C(C(=O)CC(c3ccccc3OCc3ccccc3)C2)C1c1ccccc1	Huh7			EC50	replicon	10.32 µM
O=C1Cn2c(c(C3CCCCC3)c3ccc(C(=O)O)cc32)-c2ncccc2N1			1b	EC50		1.8 µM
COc1ccc2c(O[C@@H]3C[C@H]4C(=O)N[C@]5(C(=O)NS(=O)(=O)C6CC6)C[C@@]5(F)/C=C\CCCCN(C)C(=O)[C@@H]4C3)cc(-c3nc(C(C)C)cs3)nc2c1C	Huh7	genotype 1b		EC50	luciferase	15 µM
CC(C)[C@H](NC(=O)N[C@H](C(=O)N1CC[C@H]2[C@H]1C1(CCC1)C(=O)N2C(=O)C1CC1)C(C)C)C(=O)N1CC[C@H]2[C@H]1C1(CCC1)C(=O)N2C(=O)C1CC1				EC50		0.39 µM
CCO[C@]1(CO)O[C@@H](n2ccc(N)nc2=O)[C@H](O)[C@@H]1O	Huh7			EC50	replicon	>20 µM
C=CC1CC1(NC(=O)[C@@H]1C[C@@H](Oc2cc(-c3ccccc3)nc3cc(OC)ccc23)CN1C(=O)[C@@H](CC(=O)N1CCc2ccccc2C1)C(C)(C)C)C(=O)OCC				EC50	replicon	>10 µM
CC(C)NC(=O)c1c(-c2ccc(F)cc2)oc2cc(NS(C)(=O)=O)c(OC(C)C)cc12	Huh7			EC50	replicon	<10 µM
COC(=O)N[C@@H](CC(C)C)C(=O)N1CCC[C@@H]1c1ncc(-c2ccc(-c3ccccc3)cc2)[nH]1	Huh7		1b	EC90	replicon	>1 µM
CN(C)c1ccc(/C=N/Nc2nc(-c3ccc(F)cc3)cs2)cc1	Huh7 ET			EC90	luciferase / reporter gene / replicon	>20 µM
Nc1ccc2c(Nc3ccncc3)nc(-c3cc(Cl)ccc3F)nc2n1	Huh7			EC50	replicon	2.2 µM
CNC(=O)c1c(-c2ccc(F)cc2)oc2cc(-c3cc(COC)no3)c(OC(C)C)cc12	Huh7			EC50	replicon	30 µM
O=C(N[C@@H](Cc1c[nH]c2ccccc12)C(=O)O)c1ccc2nc(-c3ccc(F)cc3)c(-c3ccc(F)cc3)nc2c1	Huh7			EC50	replicon	>50 µM
COc1ccc2c(O[C@@H]3C[C@H]4C(=O)N[C@]5(C(=O)NS(=O)(=O)C6CC6)C[C@H]5/C=C\CCCCC[C@H](CC(=O)N5CCCCC5)C(=O)N4C3)cc(-c3ccccc3)nc2c1				EC50	replicon	<100 µM
Brc1cccc(-c2nc(Nc3ccncc3)c3cccnc3n2)c1	Huh7			EC50	replicon	0.57 µM
C=CC[C@]1(CO)O[C@@H](n2ccc(N)nc2=O)[C@H](O)[C@@H]1O	Huh7			EC50	replicon	>20 µM
CNC(=O)c1c(-c2ccc(F)cc2)oc2cc(N3CCOCC3)c(OCC3CC3)cc12	Huh7			EC50	replicon	<1 µM
Fc1ccc(Cl)cc1-c1nc(Nc2ccncc2)c2ccc(NCCN3CCCCC3)nc2n1	Huh7			EC50	replicon	1.6 µM
C[C@@H]1[C@H](n2ccc(N)nc2=O)O[C@@](COP(=O)(C[C@@H](C)C(=O)OCc2ccccc2)Oc2cccc3ccccc23)(N=[N+]=[N-])[C@H]1O	Huh7-Rep		genotype 1	EC50	luciferase	3 µM
CC(C)[C@H](NC(=O)N[C@H](C(=O)N1C[C@H]2C([C@H]1C(=O)NC(CC1CC1)C(=O)C(N)=O)C2(C)C)C(C)(C)C)C(=O)C(C)(C)C			1	EC90	replicon	2 µM
CC(C)c1ccc(Nc2s[nH]c(=O)c2C#N)cc1	Huh7			EC50	replicon	1–10 µM
COC(=O)[C@H](Cc1c[nH]c2ccc(O)cc12)NC(=O)c1ccc2nc(-c3ccc(F)cc3)c(-c3ccc(F)cc3)nc2c1	Huh7			EC50	replicon	10–50 µM
CNC(=O)c1c(-c2ccc(F)cc2)oc2cc(N(C3CCCC3)S(C)(=O)=O)c(OC(C)C)cc12	Huh7			EC50	replicon	<1 µM
C=Cc1c(C)c2cc3nc(c4c5nc(cc6[nH]c(cc1[nH]2)c(C)c6CC)C(C)C5C(=O)C4CC(=O)OC)[C@@H](CCC(=O)OC/C=C(\C)CCC[C@@H](C)CCC[C@@H](C)CCCC(C)C)[C@@H]3C	Huh7.5		J6/JFH-P47	EC50		54.5 µg/mL
CNC(=O)c1c(-c2ccc(F)cc2)oc2cc(N3CCOCC3)c(OCc3nnc(-c4ccc(C)cc4)o3)cc12	Huh7			EC50	replicon	<10 µM
O=C(Nc1ccc(C2SC(=Nc3ccc(N4CCOCC4)cc3)N(c3ccccn3)C2=O)cc1)[C@H]1CCCN1C(=O)OCc1ccccc1	Huh7			EC50	replicon	<0.1 µM
CCC[C@H](NC(=O)[C@@H]1[C@H]2CCC[C@H]2CN1C(=O)[C@@H](NC(=O)[C@@H](NC(=O)c1cnccn1)C1CCCCC1)C(C)(C)C)C(=O)C(=O)NC1CC1	Huh7		1b	EC90		1.8 µM
COC(=O)[C@H](Cc1c[nH]c2ccccc12)NC(=O)c1ccc2nc(-c3ccc(F)cc3)c(-c3ccc(F)cc3)nc2c1	Huh7			EC50	replicon	10–50 µM
O=C(N[C@H]1CCCCC/C=C\[C@@H]2C[C@@]2(C(=O)NS(=O)(=O)C2CC2)NC(=O)[C@@H]2CC(Oc3ccncc3)CN2C1=O)OCCF				EC50	luciferase / reporter gene	0.29 µM
COc1ccc(CNc2ccc3c(Nc4ccncc4F)nc(-c4cc(Cl)ccc4F)nc3n2)cc1	Huh7			EC50	replicon	5.1 µM
CN1C(=O)C(c2ccc(NC(=O)[C@H]3CCCN3C(=O)OCc3ccccc3)cc2)SC1=NCc1ccccn1	Huh7			EC50	replicon	0.1–1 µM
CC1CCC(C(=O)N(c2cc(C#CC(C)(C)C)sc2C(=O)O)C2CCC(O)CC2)CC1	Huh7		1b	EC90		0.012 µM
Nc1ccn([C@@H]2OC(CO)(CO)[C@@H](O)[C@H]2O)c(=O)n1	Huh7			EC50	replicon	>20 µM

Repeating the final 6 entries:

smiles	cell line	setting	strain or isolate	endpoint	read by	value
COC(=O)[C@H](Cc1c[nH]c2ccccc12)NC(=O)c1ccc2nc(-c3ccc(F)cc3)c(-c3ccc(F)cc3)nc2c1	Huh7			EC50	replicon	10–50 µM
O=C(N[C@H]1CCCCC/C=C\[C@@H]2C[C@@]2(C(=O)NS(=O)(=O)C2CC2)NC(=O)[C@@H]2CC(Oc3ccncc3)CN2C1=O)OCCF				EC50	luciferase / reporter gene	0.29 µM
COc1ccc(CNc2ccc3c(Nc4ccncc4F)nc(-c4cc(Cl)ccc4F)nc3n2)cc1	Huh7			EC50	replicon	5.1 µM
CN1C(=O)C(c2ccc(NC(=O)[C@H]3CCCN3C(=O)OCc3ccccc3)cc2)SC1=NCc1ccccn1	Huh7			EC50	replicon	0.1–1 µM
CC1CCC(C(=O)N(c2cc(C#CC(C)(C)C)sc2C(=O)O)C2CCC(O)CC2)CC1	Huh7		1b	EC90		0.012 µM
Nc1ccn([C@@H]2OC(CO)(CO)[C@@H](O)[C@H]2O)c(=O)n1	Huh7			EC50	replicon	>20 µM